Results of unrelated studies side by side (data: NIAID ChemDB).

Common to all: growth or infection tests; agent: HIV-1; read-out: EC50

Blank or dashed fields: not listed here. ECn: concentration that inhibits the pathogen or its effect by n%. Lines come from different laboratories, so protocols vary.

compound	method	cell line	strain or isolate	value
CCCc1cc(=O)oc2c(C(=O)C(C)C(C)(C)O)c(O)c3c(c12)OC(C)(C)C=C3	cytopathic effect / MTT	MT-2		>27.1 µM
Cc1nsc(C)c1CNC(=O)[C@H]1N(C(=O)[C@@H](O)C[C@@H](Cc2ccccc2)C(=O)N[C@H]2c3ccccc3OC[C@H]2O)COC12CCCC2	p24	MT-4	NL4-3	<0.125 µM
CCCc1cc(=O)oc2c3c(c4c(c12)OC(C)(C)C=C4)OC(C)(C)[C@H](C)C3=O	cytopathic effect / MTT	MT-2		>21 µM
CO[C@@]1(CO)O[C@@H](n2cc(C)c(=O)[nH]c2=O)C[C@@H]1O		A3.01	LAV	>200 µM
CCCCC(=O)OC[C@H]1O[C@@H](n2cnc3c(N)ncnc32)[C@@H]1CO	antigen	MT-4		<3 µg/mL
CC1(C)S[C@H](C(NC(=O)Cc2ccccc2)C(=O)NCCO)N[C@H]1C(=O)NCCNC(=O)[C@@H]1N[C@@H](C(NC(=O)Cc2ccccc2)C(=O)NCc2ccccc2)SC1(C)C	cytopathic effect / MTT	MT-4	IIIB	67 µM
C[C@@H]1O[C@H]2O[C@H]3[C@@H](OC[C@@H](O)[C@@H]3O)OC(=O)[C@]34CCC(C)(C)C[C@@]3(C)C3=CC[C@@]5(C)[C@@](C)(CC[C@@H]6[C@](C)(CO)[C@@H](O[C@@H]7O[C@H](CO)[C@@H](O)[C@H](O)[C@H]7O[C@@H]7O[C@@H](C(=O)C[C@](C)(O)CC(=O)O[C@@H]1[C@@H](O[C@@H]1OC[C@@H](O)[C@H](O)[C@H]1O)[C@H]2O)[C@H](O)[C@H](O)[C@H]7O)[C@@H](O)C[C@@]65C)[C@]3(C)CC4	cytopathic effect / XTT	H9	MN	24.9 µg/mL
Nc1nc(N)c2ncn([C@H]3CC[C@](/C=C/P(=O)(O)O)(C(F)(F)F)C3)c2n1	MTT	MT-4		69.7 µM
CC1(C)S[C@H](C(NC(=O)Cc2ccccc2)C(=O)NCc2ccccc2)N[C@H]1C(=O)NCCNC(=O)[C@@H]1N[C@@H](C(NC(=O)Cc2ccccc2)C(=O)NCc2ccc(CO)cc2)SC1(C)C	cytopathic effect / MTT	MT-4	IIIB	2 µM
C=C[C@]1(C)[C@@H](O)CC2=C(CCC3C(C)(C)[C@@H](O)CC[C@]23C)[C@@H]1O	cytopathic effect	C8166		60.13 µM
Cc1nn([C@@H]2CO[C@@H](CO)O2)c(=O)[nH]c1=O	cytopathic effect / MTT	MT-2	IIIB	>100 µM
CC=CC(O)c1c(CC)c(=O)[nH]c(=O)n1COCC	cytopathic effect / MTT	MT-4	IIIB WT	>100 µM
CC(C)C1=C2[C@H]3CC[C@@H]4[C@@]5(C)CC[C@H](OC(=O)[C@H]6C[C@@H](C(=O)O)C6(C)C)C(C)(C)[C@@H]5CC[C@@]4(C)[C@]3(C)CC[C@@]2([C@@H](O)CNCc2ccc3ccccc3n2)CC1=O	p24 / ELISA	MT-2	92HT599	<1 µM
[N-]=[N+]=N[C@]1(CO)O[C@@H](n2ccc(N)nc2=O)[C@H](O)[C@@H]1O		A3.01	LAV	>8.2 µM
CCCc1cc(=O)oc2c3c(c4c(c12)OC(C)(C)C=C4)O[C@H](C)[C@@H](C)/C3=N/O	cytopathic effect / MTT	MT-2		>15.8 µM
Cc1cn([C@H]2C=C[C@@H](CO)O2)c(=O)[nH]c1=O	cytopathic effect / MTT	MT-4	RD 04-RT-210W 215D K65R Recombinant	0.53 µM
CC(=O)N[C@H]1C[C@H](n2cc(C)c(=O)[nH]c2=O)O[C@@H]1CO	ELISA / antigen	MT-4	IIIB	>10 µM
CCOC(=O)/C=C/c1ccc(OC(=O)CCC(=O)Oc2c(C)c(C)c3c(c2C)CC[C@@](C)(CCC[C@H](C)CCC[C@H](C)CCCC(C)C)O3)cc1		Macrophage + Monocytes/macrophages	BaL	~10 µM
CCOCn1c(C(O)C2=CCCCC2)c(CC)c(=O)[nH]c1=O	cytopathic effect / MTT	MT-4	HTLV-IIIB WT	3.8 µM
COc1c(OCc2ccccc2)c(OCc2ccccc2)cc(CO)c1-c1c(CO)cc(OCc2ccccc2)c(OCc2ccccc2)c1OC	p24	H9	IIIB	>30 µg/mL
Cc1cccc(C)c1CNC(=O)[C@@H]1CCCCN1C(=O)[C@@H](O)C[C@@H](Cc1ccccc1)C(=O)N[C@H]1c2ccccc2OC[C@H]1O	p24	MT-4	NL4-3	<1 µM
CC(C)C1=C2[C@H]3CC[C@@H]4[C@@]5(C)CC[C@H](OC(=O)[C@H]6C[C@@H](C(=O)O)C6(C)C)C(C)(C)[C@@H]5CC[C@@]4(C)[C@]3(C)CC[C@@]2([C@@H](O)CNC(=O)C2CC2)CC1=O	p24 / ELISA	MT-2	92HT599	<1 µM
Cc1cc(-c2ccc(N=Nc3ccc4c(S(=O)(=O)O)cc(S(=O)(=O)O)c(N)c4c3O)c(C)c2)ccc1N=Nc1ccc2c(S(=O)(=O)O)cc(S(=O)(=O)O)c(N)c2c1O	cytopathic effect	ATH8	HTLV-III/LAV	<10 µg/mL
Cc1nn([C@@H]2CO[C@H](CO)O2)c(=O)[nH]c1=O	cytopathic effect / MTT	MT-2	IIIB	>100 µM
CCOP(=O)(/C=C/[C@]1(C(F)(F)F)CC[C@H](n2cnc3c(Cl)nc(N)nc32)C1)OCC	MTT	MT-4		49.5 µM
CC(C)C1=C2[C@H]3CC[C@@H]4[C@@]5(C)CC[C@H](OC(=O)[C@H]6C[C@@H](C(=O)O)C6(C)C)C(C)(C)[C@@H]5CC[C@@]4(C)[C@]3(C)CC[C@@]2([C@@H](O)CN(CCN(C)C)Cc2cc(C(C)C)n[nH]2)CC1=O	p24 / ELISA	MT-2	92HT599	<1 µM
C=Cc1c(C)ccc2c1CCC1C(C)(C)[C@@H](O)CC[C@]21C	cytopathic effect	C8166		57.73 µM
COc1c(Br)c(C(=O)O)c(-c2c3c(c(OC)c(Br)c2C(=O)ONCCN2CCCC2)OCO3)c2c1OCO2	p24	H9	IIIB	>100 µg/mL
CC(C)C1=C2[C@H]3CC[C@@H]4[C@@]5(C)CC[C@H](OC(=O)[C@H]6C[C@@H](C(=O)O)C6(C)C)C(C)(C)[C@@H]5CC[C@@]4(C)[C@]3(C)CC[C@@]2([C@@H](O)CN(CCN(C)C)C(=O)c2cc(C(C)C)[nH]n2)CC1=O	p24 / ELISA	MT-2	92HT599	<1 µM
CCCc1cc(=O)oc2c(C(=O)C(C)(C)C(C)O)c(O)c3c(c12)OC(C)(C)C=C3	cytopathic effect / MTT	MT-2		>37 µM
CC(C)C1=C2[C@H]3CC[C@@H]4[C@@]5(C)CC[C@H](OC(=O)[C@H]6C[C@@H](C(=O)O)C6(C)C)C(C)(C)[C@@H]5CC[C@@]4(C)[C@]3(C)CC[C@@]2([C@@H](O)CNCCNC(=O)c2ccc(Cl)cc2)CC1=O	p24 / ELISA	MT-2	92HT599	<1 µM
Cc1cn(CCCCO[C@H]2C=C[C@@H](CO)O2)c(=O)[nH]c1=O	RT activity	CEM + CEM-SS	LAI	30 µg/mL
CCCc1cc(=O)oc2c3c(c4c(c12)OC(C)(C)C=C4)O[C@H](C)C(C)(C)[C@@H]3O	cytopathic effect / MTT	MT-2		>20.3 µM
Cc1cn([C@H]2C[C@H](N=[N+]=[N-])[C@@H](CO)O2)c(=O)[nH]c1=O	cytopathic effect	C8166	A17	0.00422 µg/mL
Cc1cn([C@H]2CC[C@](CO)(N=[N+]=[N-])O2)c(=O)[nH]c1=O	RT activity	A3.01	LAV	>200 µM
CCOCn1c(Cc2ccccc2)c(C(C)C)c(=O)[nH]c1=O	cytopathic effect / MTT	MT-4	N119 (Y181C)	>100 µM
CC(C)C1=C2[C@H]3CC[C@@H]4[C@@]5(C)CC[C@H](OC(=O)[C@H]6C[C@@H](C(=O)O)C6(C)C)C(C)(C)[C@@H]5CC[C@@]4(C)[C@]3(C)CC[C@@]2([C@@H](O)CNC(=O)c2ccc(Cl)cc2OC2CCNCC2)CC1=O	p24 / ELISA	MT-2	92HT599	<1 µM
CCCc1cc(=O)oc2c3c(c4c(c12)OC(C)(C)C=C4)O[C@H](CC)[C@@H](C)C3=O	cytopathic effect / MTT	MT-2		>6.8 µM
O=c1[nH]cnc2c1ncn2[C@H]1C[C@@H](CO)O1	antigen	MT-4		<3 µg/mL
CCC(C)(C)C(=O)C(=O)N1CCCCC1C(=O)OC(CCc1ccc(OC)c(OC)c1)c1cccc(NC(=O)CCC(=O)N[C@@H](Cc2ccccc2)[C@H](O)CN(CC(C)C)S(=O)(=O)c2ccc(OC)cc2)c1	p24 / ELISA	CEM	LAI	0.0025 µM
Cc1nn([C@H]2CO[C@@H](CO)O2)c(=O)[nH]c1=O	cytopathic effect / MTT	MT-2	IIIB	>100 µM
C=C1[C@H](n2cnc3c(N)ncnc32)O[C@@H]1CO	antigen	MT-4		<3 µg/mL
CCCC(=O)N[C@H]1C[C@H](n2cc(C)c(=O)[nH]c2=O)O[C@@H]1CO	ELISA / antigen	MT-4	IIIB	>1000 µM
Nc1ncnc2c1ncn2[C@@H]1O[C@H](CO)[C@H]1F	antigen	MT-4		~10 µg/mL
Nc1ncn([C@@H]2CO[C@@H](CO)O2)c(=O)n1	cytopathic effect / MTT	MT-2	IIIB	>100 µM
CCOP(=O)(/C=C/[C@]1(C(F)(F)F)CC[C@H](n2cnc3c(N)ncnc32)C1)OCC	MTT	MT-4		10.3 µM
C=C(C)[C@@H]1CC[C@]2(C(=O)O)CC[C@]3(C)[C@H](CC[C@@H]4[C@@]5(C)CC[C@H](OC(=O)CC(C)(C)C(=O)O)C(C)(C)[C@@H]5CC[C@]43C)[C@@H]12	p24	H9	IIIB	0.00035 µM
CN1CC(C(=O)N(CCCN2CCC(Cc3ccc(F)cc3)CC2)c2ccc(Cl)c(Cl)c2)CC1=O	luciferase	MOLT-4-CCR5+ + MOLT-4	JR-FL R5	0.19 µM
Cc1cccc(C)c1CNC(=O)[C@H]1N(C(=O)[C@@H](O)C[C@@H](Cc2ccccc2)C(=O)N[C@H]2c3ccccc3OC[C@H]2O)COC12CCCC2	p24	MT-4	NL4-3	<0.008 µM

A second listing of 6 rows from above:

compound,method,cell line,strain or isolate,value
C=Cc1c(C)ccc2c1CCC1C(C)(C)[C@@H](O)CC[C@]21C,cytopathic effect,C8166,,57.73 µM
CC=CC(O)c1c(CC)c(=O)[nH]c(=O)n1COCC,cytopathic effect / MTT,MT-4,IIIB WT,>100 µM
O=c1[nH]cnc2c1ncn2[C@H]1C[C@@H](CO)O1,antigen,MT-4,,<3 µg/mL
Cc1cn([C@H]2CC[C@](CO)(N=[N+]=[N-])O2)c(=O)[nH]c1=O,RT activity,A3.01,LAV,>200 µM
CCCCC(=O)OC[C@H]1O[C@@H](n2cnc3c(N)ncnc32)[C@@H]1CO,antigen,MT-4,,<3 µg/mL
CCOC(=O)/C=C/c1ccc(OC(=O)CCC(=O)Oc2c(C)c(C)c3c(c2C)CC[C@@](C)(CCC[C@H](C)CCC[C@H](C)CCCC(C)C)O3)cc1,,Macrophage + Monocytes/macrophages,BaL,~10 µM